These results are taken from the supplement of paper PMC9931576.

Human monoclonal antibodies against the spike receptor-binding domain (heavy:light variable regions). IC50 against pseudoviruses bearing the spike of naturally observed variants; lower = stronger; >10 µg/ml means not reached at the top dose. No active / inactive call. The stated detection limit is 0.0005 µg/ml; values near or below 0.001 µg/ml lie at the floor of the assay.

B1: BD56-943 (protein)
chain 1: QVQLVESGGGLVKPGGSLRLSCEASGFTFSDYYMSWIRQTPGKGLEWVSYISSGSSFTESADSVKGRFTISRDNAKKSLYLRMINLRAEDTAVYYCARVGPKTYSSTWYDDPSFAYYYMDVWGKGTTVTVSS
chain 2: EIVLTQSPGTLSLSPGERATLSCRASQSVNSNYLAWYQQKPGQAPRLLIYGTFSRATGIPDRFSGSGSGTDFTLTITRLEPEDFAVYYCQQCGNSPWTFGRGTKVEIK
B2: BD56-946 (protein)
chain 1: QVQLQESGPGLVKPSQTLSLTCTVSGGSISSGDYYWSWIRQSPGKGLEWIGYICYNGGTYYNPSLKSRVTMSLDTSKNQFSLKLTSMTAADTAVYYCARNPLRGYTCGYYDDAFDMWGQGTKITVSS
chain 2: EIVLTQSPGTLSLSPGERATLSCRASHIVSTSNLAWYQHKPGQAPRLLVYGASSRATGIPDRFSGSGSGTDFTLTISRLEPEDFAVYYCQQYGGSPYTFGQGTKLEIK
B3: BD56-937 (protein)
chain 1: EVQLLESGGGLVQPGKSLRLSCAASGFTFNNYAMNWVRQAPGKGLQWVSSISASGGSTYYADSVKGRFTISRDNSKKTMSLQMNSLRAEDTAVYYCAKERSYYYDSSRLPDDAFDIWGQGTMVTVSS
chain 2: DIQLTQSPSFLSASVGDRVTITCRASQDISSYLAWYQQKPGKAPKLLIFSAFTLQSGVPSRFSGSGSGTEFTLRISSLQPEDFATYYCQQLNSYPLTFGQGTKVEIK
B4: BD56-921 (protein)
chain 1: QVTLKESGPVLVKPTETLTLTCTVSGFSLSSPRVGVSWIRQPPGKALEWLAKIFSNDEKSYSTSLKTRLTISRDTSKSQVVLTMTNMDPVDTGTYYCARICHASGNFYSDENYFDPWGQGALVTVSP
chain 2: SYELTQPPSVSVSPGQTARITCSGDAFPNQFAYWYQQKAGQAPVVVIYKDSERPSGIPERFSGSSSGPTVTLTISGVQAEDEADYYCQSSDSSGVVFGGGTKLTVL
B5: BD56-931 (protein)
chain 1: QVQLVQSGAEVKKPGASVKVSCKSSGYTFTSYYLHWVRQAPGQGLEWMGIINPSGGGTRYAQKFQGRVTMTRDTSTSTVYMELSSLRSEDTAVYYCAREGCTGTSCYGDWGQGTLVTVSS
chain 2: SYVLTQPPSVSVAPGQTARITCGGNNIGSKSVHWYQQKPGQAPVLVVYDDSDRPSGIPERFSGSNSGNTATLTISRVEAGDEADYYCQLFDGSSDHHYVFGTGTKVTVL
B6: BD56-920 (protein)
chain 1: QEQLVQSGAEVEMPGASVKVSCKASGYTFTRYEINWVRQATGQGLEWLGWMNPNSGNTGYAQKFQGRVTMTRNTSISTAYMELRSLTSEDTAVYYCARGPHEAARPHYFYYAMDVWGQGTTVTVSS
chain 2: QSVLTQPPSVSAAPGQKVTISCSGTSPNIGNNYFSWYHQLPGTAPQLLIYDDNKRPSGIPDRFSGSKSGTSATLAITGLQTGDEADYYCGTWDSSLSAWVFGGGTKLTVL
B7: BD56-930 (protein)
chain 1: QVQLVQSGAEVKKPGASVKVSCKASGYTFTSYDISWVRQAPGQGLEWMGWISANNGNTNYAQKLQGRVTMTTDTSTSTSYMELRSLRSDDTAVYYCARDGQTAGYSGTSLPFDHWGQGTLVTVSS
chain 2: SYVLTQPPSVSVAPGQTARITCGENNIGSKSVHWYQQRPGQAPVLVVYDDSDRPSGIPERFSGSNSGNTATLTISRVGAGDEADYYCQVWGSSGDHWVFGGGTKLTVL

The target of one assay is SARS-CoV-2 Omicron BA.1 spike pseudovirus. Kind of assay: pseudovirus neutralization IC50; higher = weaker neutralization. On the procedure: (§1)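 Single-round VSV luciferase pseudovirus mixed with antibody dilutions for 1 h and put on Huh-7 cells for about a day; IC50 from the dose curve.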
With B1, the “pseudovirus neutralization IC50” value is 0.0693 µg/mL.
Still for that read-out and setting: under B2 stands 0.613 µg/mL.
The same measure, in the same setting: under B3 stands 0.0159 µg/mL; under B4, above 10 µg/mL.
The same measure, in the same setting: the result for B5 reads above 10 µg/mL; that for B6, 0.00546 µg/mL.
With B7, the “pseudovirus neutralization IC50” value is above 10 µg/mL.

In another assay the target is SARS-CoV-2 Omicron BA.2 spike pseudovirus. The description is as above. On the procedure: as §1
Consider B1, for which the “pseudovirus neutralization IC50” value is 0.0575 µg/mL.
Still for that read-out and setting: under B2 stands 0.418 µg/mL; under B3, 0.00934 µg/mL.
On to B4, for which the “pseudovirus neutralization IC50” value was above 10 µg/mL.
B5: the “pseudovirus neutralization IC50” value is above 10 µg/mL.
Still for that read-out and setting: under B6 stands 0.00299 µg/mL; under B7, above 10 µg/mL.

In another assay the target is SARS-CoV-2 Omicron BA.2.75 spike pseudovirus. Described as above. The procedure: as §1
Turning to B1, the “pseudovirus neutralization IC50” value was 0.0541 µg/mL.
With B2, the “pseudovirus neutralization IC50” value is 0.266 µg/mL.
Regarding B3, the “pseudovirus neutralization IC50” value worked out at 0.0134 µg/mL.
For B4, the “pseudovirus neutralization IC50” value was above 10 µg/mL.
Same read-out and setting: under B5 stands above 10 µg/mL.
The same measure, in the same setting: the result for B6 reads 0.00679 µg/mL; that for B7, above 10 µg/mL.

A further assay deals with SARS-CoV-2 Omicron BA.5 spike pseudovirus. Described as above. On the procedure:
as §1
With B1, the “pseudovirus neutralization IC50” value stood at 0.0406 µg/mL.
On the same count and under the same terms, the result for B2 reads 2.73 µg/mL.
Same read-out and setting: the result for B3 reads 0.00802 µg/mL; that for B4, above 10 µg/mL; that for B5, above 10 µg/mL.
With B6, the “pseudovirus neutralization IC50” value was determined as 0.169 µg/mL.
As to B7, the “pseudovirus neutralization IC50” value was above 10 µg/mL.

The target in the next assay is SARS-CoV-2 Omicron BQ.1.1 spike pseudovirus. The description is as above. On the procedure: as §1
For the molecule B1, the “pseudovirus neutralization IC50” value is 1.6 µg/mL.
Same read-out and setting: under B2 stands 3.63 µg/mL.
Still for that read-out and setting: under B3 stands above 10 µg/mL.
Same read-out and setting: the result for B4 reads above 10 µg/mL; that for B5, above 10 µg/mL.
With B7, the “pseudovirus neutralization IC50” value is above 10 µg/mL.

The next assay has as its target SARS-CoV-2 Omicron XBB spike pseudovirus. The assay is described as above. On the procedure:
as §1
On to B1, for which the “pseudovirus neutralization IC50” value is 0.844 µg/mL.
On the same count and under the same terms, under B2 stands 2.13 µg/mL; under B3, above 10 µg/mL.
For the molecule B4, the “pseudovirus neutralization IC50” value was above 10 µg/mL.
The same measure, in the same setting: under B5 stands above 10 µg/mL; under B7, above 10 µg/mL.

The target of another assay is SARS-CoV-2 early D614G spike pseudovirus. The description is as above. On the procedure: as §1
For B1, the “pseudovirus neutralization IC50” value is 0.011 µg/mL.
Still for that read-out and setting: under B2 stands 0.868 µg/mL; under B3, 0.00785 µg/mL.
On the same count and under the same terms, under B4 stands above 10 µg/mL; under B5, above 10 µg/mL.
Still for that read-out and setting: under B6 stands 0.00748 µg/mL; under B7, above 10 µg/mL.
